The term Km denotes the substrate concentration at which the rate is half of its maximum.

One series deals with N[C@H](CS)C(=O)O. The series can be described thus: purified protein. Particulars: 0.1-30 mM D-cysteine, 50 mM phosphate pH 7.6, 30°C, 5 min, 30.0 °C.
The test system of another series is NC1(C(=O)O)CC1. Kind of series: purified protein. Particulars: 0.1-100 mM ACC, 100 mM Na-phosphate pH 7.6.

With Acd1 (Dcs1) (Fusarium graminearum PH-1), the Km in the series on N[C@H](CS)C(=O)O is reported as 18 mM. For the substance Acd2 (Fusarium graminearum PH-1), in the series with NC1(C(=O)O)CC1, the Km was 3.3 ± 0.7 mM.

Values taken from PMC6746940.
